Assay results from PMC11053914 (Viruses, 2024).

System: HIV-1 NL4-3 packaged with A3G
Settings: read-out: IC50, infectivity of the A3G-containing viruses; HEK293T co-transfected with pNL4-3 and pVR-A3G-cmyc; peptides 25, 50, 100 μM added 4 h post-transfection; supernatants at 48 h tested in TZM-bl cells; three independent experiments

Compound	IC50 [µM]
CC[C@H](C)[C@H](NC(=O)[C@@H](NC(=O)[C@H](CC(C)C)NC(=O)CNC(=O)[C@H](C)NC(=O)[C@H](CC(=O)O)NC(=O)[C@H](CCCNC(=N)N)NC(C)=O)C(C)C)C(=O)N[C@H](C(=O)N[C@H](C(=O)N[C@@H](Cc1ccc(O)cc1)C(=O)N[C@@H](Cc1c[nH]c2ccccc12)C(=O)NCC(=O)N[C@@H](CC(C)C)C(=O)N[C@@H](Cc1c[nH]cn1)C(=O)N[C@H](C(=O)NCC(=O)N[C@@H](CCCCN)C(N)=O)[C@@H](C)O)[C@@H](C)O)[C@@H](C)O [VMP-60]	97
CC[C@H](C)[C@H](NC(=O)[C@H](C)NC(=O)[C@H](CC(C)C)NC(=O)CNC(C)=O)C(=O)N[C@H](C(=O)N[C@H](C(=O)N[C@@H](Cc1ccc(O)cc1)C(=O)N[C@@H](Cc1c[nH]c2ccccc12)C(=O)NCC(=O)N[C@@H](CC(C)C)C(=O)N[C@@H](Cc1c[nH]cn1)C(=O)N[C@H](C(=O)NCC(=O)N[C@@H](CCC(=O)O)C(=O)N[C@@H](CCCNC(=N)N)C(=O)NCC(N)=O)[C@@H](C)O)[C@@H](C)O)[C@@H](C)O [VMP-63]	49.4
CC[C@H](C)[C@H](NC(=O)[C@H](C)NC(=O)[C@H](CO)NC(=O)[C@H](CC(N)=O)NC(=O)[C@H](CO)NC(=O)[C@H](Cc1ccccc1)NC(=O)[C@H](CS)NC(=O)[C@H](CC(=O)O)NC(=O)[C@H](Cc1ccccc1)NC(=O)[C@H](Cc1ccc(O)cc1)NC(=O)[C@H](Cc1ccc(O)cc1)NC(=O)[C@H](CC(C)C)NC(=O)[C@H](CCCNC(=N)N)NC(C)=O)C(N)=O [VMP-108]	55.1
